Compound potency records, mixed from different reports. Data source: NIAID ChemDB in PubChem.

Common to all: toxicity to cultured cells; cell line: JM; read-out: CC50

CCn: concentration that lowers growth or viability of the cells by n%. Blank or dashed fields: not listed here. Neighbouring rows are from separate reports.

compound,read by,value
O=c1[nH]cnc2c1ncn2[C@H]1CC[C@@H](CO)O1,,1111 µM
CSc1ccc(OP(=O)(OC[C@H]2O[C@@H](n3cc(C)c(=O)[nH]c3=O)C[C@@H]2N=[N+]=[N-])Oc2ccc(SC)cc2)cc1,,200 µM
C[C@H](CCC(=O)NCCS(=O)(=O)O)[C@H]1CC[C@H]2[C@@H]3CC[C@@H]4C[C@H](O)CC[C@]4(C)C3CC[C@]12C,MTT,>50 µg/mL
Cc1cn([C@H]2C[C@H](N=[N+]=[N-])[C@@H](COP(=O)(O)O)O2)c(=O)[nH]c1=O,MTT,100 µM
Cc1cn([C@H]2C[C@H](N=[N+]=[N-])[C@@H](CO)O2)c(=O)[nH]c1=O,,>1000 µM
CCOC(=O)c1ccc(COP(=O)(O)OC[C@H]2O[C@@H](n3cc(C)c(=O)[nH]c3=O)C[C@@H]2N=[N+]=[N-])cc1,MTT,19 µM
CCCC(=O)O[C@H]1CN2CC[C@H](O)[C@@H]2[C@@H](O)[C@@H]1O,,965 µM
Nc1ccn([C@H]2CC[C@@H](CO)O2)c(=O)n1,,0.5 µM
CCOP(=O)(N[C@@H](C)C(=O)OC)OC[C@H]1O[C@@H](n2cc(C)c(=O)[nH]c2=O)C[C@@H]1N=[N+]=[N-],MTT,1000 µg/mL
Cc1cn([C@H]2C[C@H](N=[N+]=[N-])[C@@H](COP(=O)(Oc3ccc([N+](=O)[O-])cc3)Oc3ccc([N+](=O)[O-])cc3)O2)c(=O)[nH]c1=O,,20 µM
CCOP(=O)(N[C@@H](CC(C)C)C(=O)OC)OC[C@H]1O[C@@H](n2cc(C)c(=O)[nH]c2=O)C[C@@H]1N=[N+]=[N-],MTT,500 µg/mL
Cc1cn([C@H]2C[C@H](N=[N+]=[N-])[C@@H](COP(=O)(Oc3ccc([N+](=O)[O-])cc3)Oc3ccc([N+](=O)[O-])cc3)O2)c(=O)[nH]c1=O,,20 µM
O=C(O)C1=CC(=C(c2ccc(O)c(C(=O)O)c2)c2ccc(O)c(C(=O)O)c2)C=CC1=O,MTT,1000 µg/mL
Cc1cn([C@H]2C[C@H](N=[N+]=[N-])[C@@H](COP(=O)(O)OCc3ccc(C(=O)OC(C)(C)C)cc3)O2)c(=O)[nH]c1=O,MTT,10 µM
O[C@H]1[C@H](O)[C@@H](O)CN2CC[C@H](O)[C@H]12,MTT,1000 µg/mL
Cc1cn([C@H]2C[C@H](N=[N+]=[N-])[C@@H](COP(=O)(OCC(Cl)(Cl)Cl)Oc3ccccc3)O2)c(=O)[nH]c1=O,,50 µM
Nc1ccn([C@H]2CC[C@@H](CO)O2)c(=O)n1,,0.5 µM
OC[C@H]1N[C@H](CO)[C@@H](O)[C@@H]1O,MTT,>1000 µg/mL

The last 3 rows once more:

compound | read by | value
Cc1cn([C@H]2C[C@H](N=[N+]=[N-])[C@@H](COP(=O)(OCC(Cl)(Cl)Cl)Oc3ccccc3)O2)c(=O)[nH]c1=O |  | 50 µM
Nc1ccn([C@H]2CC[C@@H](CO)O2)c(=O)n1 |  | 0.5 µM
OC[C@H]1N[C@H](CO)[C@@H](O)[C@@H]1O | MTT | >1000 µg/mL